From patent US20240042018A1 (University of Washington, published 2024) come the findings set out here.

For this assay, the target named is I53-50B.4PT1 pentamer. In words: in vitro nanoparticle assembly, SEC and SDS-PAGE.

B1: H1MI15-I53-50A trimer (A/Michigan/45/2015 HA 1-676 Y98F) (other)
chain: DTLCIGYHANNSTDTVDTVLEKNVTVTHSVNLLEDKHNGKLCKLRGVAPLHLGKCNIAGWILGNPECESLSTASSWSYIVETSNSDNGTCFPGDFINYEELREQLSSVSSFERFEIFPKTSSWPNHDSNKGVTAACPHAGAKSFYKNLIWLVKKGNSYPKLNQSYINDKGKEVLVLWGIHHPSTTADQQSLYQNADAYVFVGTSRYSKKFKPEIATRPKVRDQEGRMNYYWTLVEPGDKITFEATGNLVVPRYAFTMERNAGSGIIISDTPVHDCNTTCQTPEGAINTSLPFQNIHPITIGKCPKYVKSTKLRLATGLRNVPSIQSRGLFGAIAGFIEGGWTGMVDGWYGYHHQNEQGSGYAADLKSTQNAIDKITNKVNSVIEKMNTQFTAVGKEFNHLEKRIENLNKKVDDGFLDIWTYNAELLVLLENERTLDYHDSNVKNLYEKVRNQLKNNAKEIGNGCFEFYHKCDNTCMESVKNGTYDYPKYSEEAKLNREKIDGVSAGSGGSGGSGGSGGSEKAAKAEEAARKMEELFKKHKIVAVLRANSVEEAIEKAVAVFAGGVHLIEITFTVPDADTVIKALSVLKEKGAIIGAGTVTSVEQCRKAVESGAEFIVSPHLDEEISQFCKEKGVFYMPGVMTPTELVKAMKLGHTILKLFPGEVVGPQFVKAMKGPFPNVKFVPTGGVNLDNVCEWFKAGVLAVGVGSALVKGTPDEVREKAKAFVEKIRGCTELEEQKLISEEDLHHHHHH
Consider B1, for which the binding result was “binds”.
